From patent US20230218721A1 (ZHEJIANG DOER BIOLOGICS CO., LTD., priority 2020, published 2023) come the findings set out here.

The data set can be described thus: general procedure: Fmoc solid-phase peptide synthesis; Rink amide MBHA; DIC/HOBt. Conditions: whole synthesis, scale of the general procedure 1.0 mmol.

In the case of “YSEGT FTSDX10 SKYLDSQAAQDFVQWLLAGGPSSGAPPPS-NH2; X10 = K (((eicosandioic acid monoacyl)-γE)-2xOEG)”, the “final purity (method not given)” value is listed as 97.1%.

As to “YSEGT FTSDX10 SKYLDSQAAQDFVQWLLAGGPSSGAPPPS-NH2; X10 = K (((octadecanedioic acid monoacyl)-γE)-2xOEG)”, the “final purity (method not given)” value stood at 96.5%.
